{"source": "patent EP0392666A2", "about": "“Anti-HIV compositions” (JOHNSON MATTHEY PUBLIC LIMITED COMPANY, priority 1989, dated 1990)", "key": {"[1]": {"system": "HIV-1 (HTLV-IIIB)", "format": "cell-based", "conditions": "Selectivity Index, ratio of CD₅₀ to ED₅₀, 7200 min"}, "[2]": {"system": "HIV-2 (LAV-2 ROD)", "test": "MTT method anti-HIV screen in MT-4 cells infected with HIV-2", "format": "cell-based", "conditions": "Selectivity Index, ratio of CD₅₀ to ED₅₀, 7200 min", "description": "The compounds of the invention were tested in a screen by the MTT method (J. Virol. Methods 120: 309-321 [1988]). MT-4 cells (2.5 x 10⁴ /well) were infected with HIV-1 (HTLV-IIIB) or HIV-2 (LAV-2 ROD) at a concentration of 100 CCID₅₀ and incubated in the presence of various concentrations of the test compounds, which were added immediately after infection with the virus. After 5 days culture at 37°C in a CO₂ incubator, the number of viable cells was assessed by the MTT (tetrazolium) method. […] The potential therapeutic usefulness was assessed by calculating a Selectivity Index (SI) corresponding to the ratio of CD₅₀ to ED₅₀. A control test was performed using the known anti-HIV treatment AZT."}}}
{"substance": "Zn complex of 1,4,8,12-tetrazacyclopentadecane (Cl⁻) [G]", "values": [{"measurement": "SI", "setting": "[1]", "value": 28}, {"measurement": "SI", "setting": "[2]", "value": "<1"}]}
{"substance": "Zn complex of 1,5,9,13-tetrazacyclohexaadecane (Cl⁻) [Compound H]", "values": [{"measurement": "SI", "setting": "[1]", "value": 4}, {"measurement": "SI", "setting": "[2]", "value": "<1"}]}
